According to ChEMBL document CHEMBL1156829:
Only a part is listed here, and it is no random draw.

Assay: NOVARTIS: Inhibition Frequency Index (IFI) - the number of HTS assays where a compound showed > 50% inhibition/induction, expressed as a percentage of the number of assays in which the compound was tested.
Assay type: functional

| Compound | IFI [%] |
| --- | --- |
| O=[N+]([O-])c1ccc(NCCN(CCO)c2ccc([N+](=O)[O-])cc2[N+](=O)[O-])c(Cl)c1 | 0 |
| Cc1nc(Nc2cccc([N+](=O)[O-])c2)nc(Nc2cccc([N+](=O)[O-])c2)c1[N+](=O)[O-] | 0 |
